PubChem BioAssay AID1259414 – Drosophila RNAi Screening Center | 2018
Test: 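Host factors increasing or decreasing Wolbachia levels in cultured fly cells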 (primary screen). Cell system: Drosophila JW18 cells infected with Wolbachia. Knock-down reagent: long dsRNA against Drosophila genes, 0.25 µg dsRNA per well of a 384-well plate. Duration: 5 days. Challenge: cells persistently infected with Wolbachia before knock-down; no added drug. Measured: 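Imaged fluorescence in situ signal for Wolbachia 23S rRNA per DAPI-counted host cell, given as a robust z-score within each plate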. Direction: Wolbachia per cell robust z: higher = more Wolbachia per host cell than the plate typical. Call rule: 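Hit when robust z is 1.5 or more, or -1.5 or less, in at least two of three replicates; excludes dsRNAs with several or no targets, genes not expressed in JW18 and well A1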.
In all, the deposit lists about 24,000 reagents; this is a random part of those that have a named target and a result. Of all reagents, about 1,210 (5%) are marked active. 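Inactive calls also include excluded dsRNAs with several or no targets, genes unexpressed in JW18, and well A1, regardless of score.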 Names joined by + are all predicted targets of the reagent. Reagent sequences are not shown.

target	DRSC id	Wolbachia per cell robust z, rep 1	Wolbachia per cell robust z, rep 2	Wolbachia per cell robust z, rep 3	call
PLCXD	DRSC02427	0.822	-1.3	-0.6	inactive
CG33229 + lncRNA:CR42862	DRSC08497	-5.26	-0.753	-1.91	inactive
EMC4	DRSC11638	-1.29	-0.283	0.615	inactive
EMC4	DRSC29652	0.796	0.979	0.447	inactive
Mrp4	DRSC14931	0.475	-0.87	-0.245	inactive
Mrp4	DRSC28151	0.178	0.233	-0.605	inactive
ATPsyndelta	DRSC18248	-0.268	-2.17	0.0685	inactive
ND-B14.7	DRSC04544	-0.343	0.691	-0.519	inactive
CG33647	DRSC37823	-6.83	-0.452	-0.958	inactive
CG14764	DRSC05072	-1.55	-0.907	-0.777	inactive
CG14764	DRSC06498	-4.56	1.2	-0.114	inactive
CG14764	DRSC06844	-0.441	-1.6	-3.1	active
CG14764	DRSC40525	-1.49	-0.72	-0.238	inactive
CD98hc	DRSC15453	0.226	-0.47	-0.416	inactive
Galphaf	DRSC11171	-0.836	-2.04	-0.206	inactive
Ugt35D1	DRSC15107	0.146	-0.424	1.33	inactive
LysB + LysC + LysD	DRSC21249	0.6	0.48	-0.161	inactive
beat-Ic	DRSC01524	1.12	0.67	1.11	inactive
beat-Ic	DRSC03491	0.657	-1.73	0.958	inactive
beat-Ic	DRSC23508	-0.23	1.04	-7.92	inactive
beat-Ic	DRSC38988	1.91	1.4	0.631	inactive
Timp	DRSC17082	0.0843	0.305	-0.669	inactive
Prx6a	DRSC00565	0.691	-0.478	-0.787	inactive
dgt6	DRSC14424	-0.00679	0.596	-0.842	inactive
Jhbp11	DRSC15183	0.477	0.303	0.627	inactive
Jhbp11	DRSC29679	0.51	-0.615	-0.164	inactive
CG42512 + CG32573	DRSC19906	0.222	0.107	1.64	inactive
CG42512 + CG32573	DRSC22782	-0.638	0.6	0.301	inactive
mxc	DRSC17819	0.448	-0.356	0.712	inactive
CG10395 + IFT20	DRSC27079	0.124	-0.412	1.12	inactive
Chc	DRSC20229	0.703	2.72	-6.83	inactive
Ir48a	DRSC05301	0.26	1.07	0.645	inactive
CG3430	DRSC02713	0.15	1.38	-11.6	inactive
CG3500	DRSC04379	-1.03	0.922	0.402	inactive
CG3500	DRSC26614	0.493	-0.617	-1.52	inactive
CG15025	DRSC15031	0.648	-0.77	-1.87	inactive
Oga	DRSC15901	0.223	-0.73	-0.299	inactive
dlt	DRSC08705	-1.72	0.567	0.615	inactive
dlt	DRSC26168	-7.6	-1.66	-0.203	active
RpL28 + snoRNA:Me28S-C3351	DRSC26182	0.704	-0.443	3.82	inactive
Glys	DRSC16130	-0.337	1	0.637	inactive
CG4267	DRSC00102	-0.341	0.462	0.0233	inactive
CG4267	DRSC00647	0.9	0.399	-1.83	inactive
CG4267	DRSC28673	-0.825	0.583	-0.641	inactive
CG4267	DRSC29852	-1.26	0.289	-0.135	inactive
nbs	DRSC11373	1.19	0.587	-2.31	inactive
nbs	DRSC23793	-0.306	-0.845	0.209	inactive
CG34202	DRSC38630	-0.396	0.481	-0.115	inactive
CG8191	DRSC20091	-0.147	0.915	0.263	inactive
CG18135	DRSC10295	0.00487	0.632	0.00386	inactive

Taken from above:
For “Wolbachia per cell robust z, rep 1”, RpL28 + snoRNA:Me28S-C3351 [DRSC26182] is entered as 0.704
For “call”, beat-Ic [DRSC23508] has inactive
Value for Ugt35D1 [DRSC15107] under “Wolbachia per cell robust z, rep 1”: 0.146
CG4267 [DRSC00647], Wolbachia per cell robust z, rep 2: 0.399

The listing continues:
target	DRSC id	Wolbachia per cell robust z, rep 1	Wolbachia per cell robust z, rep 2	Wolbachia per cell robust z, rep 3	call
CG13344	DRSC06378	-1.24	-0.138	-0.545	inactive
wgn	DRSC19998	-5.71	-2.4	-3.67	inactive
TTLL1A	DRSC20121	-3.11	-1.28	1.57	inactive
CG12963	DRSC06265	0.679	0.976	-0.341	inactive
CG3420	DRSC04995	0.617	1.21	-0.539	inactive
Ankrd49	DRSC01894	0.747	0.902	-0.195	inactive
Ankrd49	DRSC29117	1.35	1.4	-0.331	inactive
Trpgamma	DRSC03626	-0.978	-0.746	-6.32	inactive
Fkbp12	DRSC07425	0.679	-3.69	-2.34	active
Ccp84Ae	DRSC12590	-0.441	0.739	-0.958	inactive
Ccp84Ae	DRSC26385	0.318	-9.5	-0.798	inactive
Ccp84Ae	DRSC38956	0.971	0.654	-0.0893	inactive
CG8461	DRSC16424	0.797	-0.328	-3.34	inactive
CG3594	DRSC04393	0.903	-1.45	-0.356	inactive
CG3594	DRSC21959	-0.0113	-0.186	-0.075	inactive
Hsp70Bbb + Hsp70Bb	DRSC15885	0.233	0.185	0.529	inactive
CG7573	DRSC10884	0.338	-0.27	-5.75	inactive
CG9281	DRSC20179	-3.99	0.0791	-2.45	active
CG9281	DRSC24522	-1.76	-0.00828	1.95	inactive
CG32182	DRSC09508	-8.82	0.055	0.341	inactive
CG32182	DRSC24583	-1.7	-0.576	-1.12	inactive
CG8067	DRSC07065	-2.83	-1.64	-5.11	active
CG15544	DRSC15082	0.317	-0.421	-0.111	inactive
CG15544	DRSC25686	0.582	0.322	-10.6	inactive
FeCH	DRSC16948	0.544	-0.103	-1.6	inactive
FeCH	DRSC27562	0.0226	0.258	-0.393	inactive
CG1941	DRSC06802	-1.06	-1.99	-1.08	inactive
y	DRSC18853	-0.17	0.67	-0.136	inactive
y	DRSC39116	-1.5	-0.602	-0.311	inactive
mAcon1	DRSC01853	0.672	-2.4	-0.93	inactive
mAcon1	DRSC24875	-0.556	-1.01	0.0075	inactive
mAcon1	DRSC38959	1.92	0.718	0.61	inactive
Ada2a + Polr2D	DRSC16206	-5.38	-4.7	-0.0637	active
Ada2a + Polr2D	DRSC21598	-0.538	-1.7	0.128	inactive
CG7692	DRSC10902	-0.994	0.487	0.207	inactive
CG7692	DRSC24040	-0.388	-2.77	-1.31	inactive
NSD	DRSC15691	-3.15	-0.0532	1.52	inactive
